Reference: patent publication US6455587B1 (priority 2000, dated 2002)

Target: recombinant HIV-1 protease (Human immunodeficiency virus type 1 group M subtype B, UniProt P04585)
Test: Enzymatic fluorometric (FRET) assay for determining the inhibition constant (Ki) against HIV protease
Assay type: biochemical
Conditions: pH 4.7, 31° C.
Excerpt: An Enzymatic assay for determining the inhibition constant (Ki) of synthetic compounds targeting the HIV protease may be carried out as follows: This is a fluorometric assay based on the cleavage by protease of a substrate carrying a donor group (EDANS) and an acceptor group (DABCYL) on each side of the cleavage site, interacting together through fluorescence resonance energy transfer (FRET). Cleavage of the substrate by protease stops energy exchange between the two groups, resulting in a time-dependent increase in fluorescence intensity that is linearly related to the extent of substrate hydrolysis.
The enzymatic assay is done at 31° C. in white 96-well fluorescence microplates, in a total volume of 200 μL per well. The apparatus used for analysis is a FL600 fluorescence microplate reader (Biotek Instruments). […] Excitation of the fluorophore is done at 340 nm and emission at 485 nm is recorded continuously during the reaction, allowing determination of the enzyme's initial velocity (v0). At the end of the 4 min incubation, the potential inhibitor at a defined concentration in a volume of 4 μL is added to the reaction, and fluorescence readings are taken for another 4 min, allowing determination of enzyme velocity (vi) in the presence of the inhibitory compound. […]

Structure (SMILES): Cc1ccc(S(=O)(=O)N(CC(C)C)[C@@H](CCCCNC(=O)O[C@H]2CC[C@@]3(C)C(=CC[C@H]4[C@@H]5CC[C@H]([C@H](C)CCCC(C)C)[C@@]5(C)CC[C@@H]43)C2)C(=O)O)cc1
- Ki: > 1250 nM
